Target: T1, Staphylococcal Enterotoxin B (SEB) (UniProt P01552 28-266)
T1 sequence: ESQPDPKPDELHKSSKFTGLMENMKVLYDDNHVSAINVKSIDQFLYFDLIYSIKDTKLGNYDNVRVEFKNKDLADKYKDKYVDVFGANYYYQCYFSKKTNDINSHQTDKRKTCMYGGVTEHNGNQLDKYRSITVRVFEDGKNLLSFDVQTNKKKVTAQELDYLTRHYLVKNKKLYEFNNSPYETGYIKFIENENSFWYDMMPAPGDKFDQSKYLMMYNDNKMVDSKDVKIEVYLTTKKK
Test: SPR (ProteON XPR36), antigen-coated chip

B1: sdAb A3-ATS (VHH)
VHH: EVQLVESGGGLVQAGDSLRLSCTASGRTFSRAVMGWFRQAPGKEREFVAAISAAPGTAYYAFYADSVRGRFSISADSAKNTVYLQMNSLKPEDTAVYYCAADLKMQVAAYMNQRSVDYWGQGTQVTVSS
  binding result: binds
